Data as given in PubChem BioAssay AID1259414 (Drosophila RNAi Screening Center, 2018).

Test: 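Genome-wide screen for host control of endosymbiont load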 (primary screen)
Cell system: Drosophila JW18 cells infected with Wolbachia
Reagents: long dsRNA against Drosophila genes, 0.25 µg dsRNA per well of a 384-well plate
Time to read-out: 5 days
Treatment: cells persistently infected with Wolbachia before knock-down; no added drug
Detection: 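Automated imaging of bacterial rRNA staining divided by host cell count, reported as plate-normalised robust z-score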
Direction: Wolbachia per cell robust z: higher = more Wolbachia per host cell than the plate typical
Active means: 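Active if absolute robust z reaches 1.5 in two or more of three replicates, leaving out multi- or no-target dsRNAs, genes unexpressed in JW18 and A1 wells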
The deposit covers about 24,000 reagents; shown is an unselected part of those that have a named target and a result. In the full data, about 1,210 (5%) are marked active. 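Inactive calls also include excluded dsRNAs with several or no targets, genes unexpressed in JW18, and well A1, regardless of score.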

| gene | DRSC id | Wolbachia per cell robust z, rep 1 | Wolbachia per cell robust z, rep 2 | Wolbachia per cell robust z, rep 3 | call |
| --- | --- | --- | --- | --- | --- |
| CG31778 | DRSC00283 | -0.6 | 0.115 | -1.83 | inactive |
| CG5116 | DRSC15720 | 0.839 | -1.64 | 0.806 | inactive |
| Oda (Ornithine decarboxylase antizyme) | DRSC07626 | 0.598 | -0.067 | 0.471 | inactive |
| Oda (Ornithine decarboxylase antizyme) | DRSC28076 | -0.39 | 1.36 | -1.84 | inactive |
| gcm (glial cells missing) | DRSC03536 | -2.41 | -0.175 | -3.57 | inactive |
| CG13796 | DRSC24686 | -0.388 | -0.814 | 0.221 | inactive |
| HP1e (Heterochromatin Protein 1e) | DRSC16379 | 0.745 | -5.72 | -1.17 | inactive |
| BigH1 (Histone H1 variant BigH1) | DRSC15491 | -0.342 | 0.61 | -3.61 | inactive |
| BigH1 (Histone H1 variant BigH1) | DRSC27817 | -1.97 | -0.947 | -0.17 | inactive |
| CG31418 | DRSC21780 | 0.356 | 0.518 | 0.937 | inactive |
| CG31418 | DRSC26160 | -0.404 | 0.573 | -0.388 | inactive |
| CG30286 | DRSC04070 | -0.897 | -4.93 | 0.0173 | inactive |
| Ance-2 | DRSC02539 | 0.56 | 0.659 | 0.0409 | inactive |
| CG9643 | DRSC00722 | 1.21 | 0.715 | 1.09 | inactive |
| CG9643 | DRSC27948 | 1.08 | -0.55 | -1.38 | inactive |
| HLH54F | DRSC07438 | -0.788 | -0.451 | -3.11 | inactive |
| GstE5 (Glutathione S transferase E5) | DRSC06675 | -1.8 | -1.53 | -1.85 | inactive |
| Gr58a (Gustatory receptor 58a) | DRSC03910 | -0.186 | 0.989 | 0.419 | inactive |
| Or85c (Odorant receptor 85c) | DRSC16766 | 0.236 | 1.35 | 1.34 | inactive |
| Polr2H (RNA polymerase II, I and III subunit H) | DRSC11642 | 1.17 | 3.05 | 1.22 | inactive |
| CkIIalpha-i1 (CKII-alpha subunit interactor-1) | DRSC11115 | -0.526 | -1.72 | 0.171 | inactive |

Continued (3 carried over from the part before).
| gene | DRSC id | Wolbachia per cell robust z, rep 1 | Wolbachia per cell robust z, rep 2 | Wolbachia per cell robust z, rep 3 | call |
| --- | --- | --- | --- | --- | --- |
| Or85c (Odorant receptor 85c) | DRSC16766 | 0.236 | 1.35 | 1.34 | inactive |
| Polr2H (RNA polymerase II, I and III subunit H) | DRSC11642 | 1.17 | 3.05 | 1.22 | inactive |
| CkIIalpha-i1 (CKII-alpha subunit interactor-1) | DRSC11115 | -0.526 | -1.72 | 0.171 | inactive |
| CG7065 | DRSC18420 | 1.14 | -0.375 | -0.0353 | inactive |
| CG7065 | DRSC25280 | 0.712 | 0.248 | 0.902 | inactive |
| mmy (mummy) | DRSC02002 | -0.397 | 0.465 | -2.66 | inactive |
| CR15280 (pseudo) | DRSC01953 | -0.0223 | 0.156 | -0.694 | inactive |
| CR15280 (pseudo) | DRSC24110 | 0.616 | 0.709 | 0.544 | inactive |
| Tengl3 (Testis EndoG-Like 3) | DRSC22288 | -0.12 | 0.235 | 0.00235 | inactive |
| Tengl3 (Testis EndoG-Like 3) | DRSC27773 | 0.525 | -0.86 | -5.61 | inactive |
| RNaseP:RNA (Ribonuclease P RNA) | DRSC22967 | -0.442 | -0.608 | -0.0206 | inactive |
| CG14107 | DRSC10110 | 0.451 | -1.07 | 1.67 | inactive |
| CG14107 | DRSC25136 | -1.4 | -0.374 | 0.419 | inactive |
| Archease | DRSC16025 | 0.062 | -0.0445 | 1.02 | inactive |
| yellow-e3 | DRSC15170 | 0.802 | 0.134 | 1.1 | inactive |
| CG8028 | DRSC20075 | 0.623 | 0.827 | 1.11 | inactive |
| CG15529 | DRSC15066 | 0.0973 | 0.22 | -0.364 | inactive |
| SMC5 (Structural maintenance of chromosomes 5) | DRSC11849 | -0.11 | -1.07 | -0.307 | inactive |
| CG13850 | DRSC14700 | 0.436 | 1.16 | 0.328 | inactive |
| CG13850 | DRSC41447 | 0.036 | -2.44 | -0.355 | inactive |
| Obp83ef (Odorant-binding protein 83ef) | DRSC12268 | -5.59 | 0.122 | -0.861 | inactive |
| Obp83ef (Odorant-binding protein 83ef) | DRSC30027 | -1.46 | -1.2 | -10.4 | inactive |
| CG14565 | DRSC11726 | -0.364 | 0.886 | -1.03 | inactive |
| CG14565 | DRSC26063 | -0.756 | -3.25 | -0.72 | inactive |
| CG3294 | DRSC00590 | -1.93 | 0.156 | 0.304 | inactive |
| CG3294 | DRSC26228 | 0.212 | 1.21 | -0.588 | inactive |
| Liprin-alpha | DRSC02132 | 0.0993 | 0.781 | -0.253 | inactive |
| Liprin-alpha | DRSC26919 | -2.04 | -1.26 | -1.46 | inactive |
